Anti-infective test results gathered from many reports (values: NIAID ChemDB through PubChem).

All rows: whole-cell or culture tests; organism: Plasmodium falciparum

Rows are shuffled and stem from different studies. An empty or dashed field is not shown. ECn is the concentration giving n% inhibition of infection, replication or growth.

SMILES,method,cells,read-out,changes,strain,value
COc1cc(OC)c(C=C2SC(=O)N(Cc3ccc(F)cc3F)C2=O)c(OC)c1,fluorescence,-,EC50,Chloroquine-resistant,W2,>10 µM
C/C=C1/CN2CCc3c([nH]c4ccccc34)C2C[C@@H]1C1=CN2c3ccccc3C34CCN5CC6=CCO[C@@H]1[C@@H]([C@H]23)[C@H]6C[C@H]54,-,-,EC50,-,W2,0.326 µg/mL
O=c1c(O[C@@H]2O[C@H](CO)[C@H](O)[C@H](O)[C@H]2O)c(-c2ccc(O)c(O)c2)oc2cc(O)cc(O)c12,-,-,EC50,-,Clinical isolates,24.38 µM
CCO[C@H]1O[C@@H]2OC3(C)CC[C@H]4[C@H](C)CC[C@@H]([C@H]1C)[C@@]24OO3,-,-,EC50,-,W2,0.005 µg/mL
COc1cc(OC)c(C=C2SC(=O)N(CC(=O)N3CCN(c4ccccc4)CC3)C2=O)c(OC)c1,fluorescence,-,EC50,Chloroquine-resistant,W2,0.88 µM
C=C[C@H]1CN2CC[C@H]1C[C@H]2[C@H](O)c1ccnc2ccc(OC)cc12,-,-,EC50,-,D10,0.215 µM
C[C@@H]1CC[C@H]2[C@@H](C)C(=O)O[C@@H]3OC4(C)CC[C@@H]1[C@]32OO4,broth dilution / radiometric,human red blood cells,EC50,-,FcB1,0.01 µM
Cc1cccc(NCc2cc3ccccc3[nH]c2=O)c1,-,-,EC50,-,Dd2,>50 µM
O=P(O)(O)C(O)(Cc1cccnc1)P(=O)(O)O,-,-,EC50,-,3D7,20.3 µM
CS[C@@]12C[C@H]3C(=O)CC[C@H](O)[C@H]3N1C(=O)[C@]1(SC)C[C@H]3C(=O)CC[C@H](O)[C@H]3N1C2=O,SYBR Green,-,EC50,-,3D7,2.5 µM
Cc1cccc(OCCNC(=O)c2ccc(Cl)cc2Cl)c1,-,-,EC50,-,Dd2,>50 µM
CCOC(=O)c1ccc(/C=C/C2CN3CCC2CC3[C@H](O)c2ccnc3ccccc23)cc1,-,-,EC50,-,Dd2,0.176 µM
Cc1cccc(OCCNC(=O)c2cc3ccccc3cc2O)c1,-,-,EC50,-,Dd2,8.4 µM
C[C@H]1[C@@H](OC(=O)CCC(=O)O)O[C@@H]2O[C@@]3(C)CC[C@H]4[C@H](C)CC[C@@H]1[C@@]24OO3,-,-,EC50,-,NF54,0.0035 µM
O=C1N2[C@@H]3C=CC=C[C@@H]3C[C@]23SS[C@]12C[C@H]1C=CC=C[C@H]1N2C3=O,SYBR Green,-,EC50,-,3D7,3.6 µM
C[C@@H]1CC[C@H]2[C@@H](C)C(=O)O[C@@H]3OC4(C)CC[C@@H]1[C@]32OO4,LDH / absorbance,-,EC50,-,3D7,0.0067 µg/mL
O=C(CN1C(=O)SC(=Cc2ccc(F)cc2)C1=O)N1CCN(c2ccccc2)CC1,fluorescence,-,EC50,Chloroquine-resistant,W2,>10 µM
C=C(NC(=O)C(=C)NC(=O)c1csc(C2=N[C@@H]3c4csc(n4)[C@H]4NC(=O)c5csc(n5)[C@H]([C@](C)(O)[C@@H](C)O)NC(=O)C5CSC(=N5)/C(=C/C)NC(=O)[C@H]([C@@H](C)O)NC(=O)c5csc(n5)[C@]3(CC2)NC(=O)C(C)NC(=O)C(=C)NC(=O)C(C)NC(=O)C(C(C)CC)NC2C=Cc3c([C@H](C)O)cc(nc3[C@H]2O)C(=O)O[C@@H]4C)n1)C(N)=O,-,-,EC50,-,NF54,0.3877 µM
O=C(CN1C(=O)SC(=Cc2ccccc2Br)C1=O)N1CCN(c2ccccc2)CC1,fluorescence,-,EC50,Chloroquine-resistant,W2,>10 µM
CC(=O)C1C(=O)C=C(C)OC1=O.CCc1nc(N)nc(N)c1-c1ccc(Cl)cc1,LDH,-,EC50,-,NF54,0.00071 µg/mL
CC(C)(O)[C@H](O)COc1c2occc2cc2ccc(=O)oc12,-,RBC,EC50,-,CQ-resistant,6 µg/mL
C/C=C1/CC2CCC3=C(Cc4ccccc43)C2C[C@@H]1C1=CN2c3ccccc3C34CCN5C/C(=C/O)[C@H](C[C@H]53)[C@@H]([C@@H]1O)[C@H]24,-,-,EC50,-,W2,0.615 µg/mL
O=C(CN1C(=O)SC(=Cc2ccccc2)C1=O)N1CCN(c2ccccc2)CC1,fluorescence,-,EC50,Chloroquine-resistant,W2,>10 µM
O=C1N2[C@H]3[C@@H](C[C@@]24SS[C@@]12C[C@@H]1[C@@H]([C@@H]5C=C[C@H]1OO5)N2C4=O)[C@H]1C=C[C@@H]3OO1,SYBR Green,-,EC50,-,3D7,2.5 µM
Cc1cccc(OCCNC(=O)c2ccccc2C(F)(F)F)c1,-,-,EC50,-,Dd2,43.1 µM
COc1c(O)cc2oc(-c3ccc(O)c(O)c3)cc(=O)c2c1O,-,-,EC50,-,-,3.2 µg/mL
Cc1cccc(C=C2SC(=O)N(CC(=O)N3CCN(c4ccccc4)CC3)C2=O)c1,fluorescence,-,EC50,Chloroquine-resistant,W2,>10 µM
Cc1cccc(OC2CN(C(=O)c3ccccc3Cl)C2)c1,-,-,EC50,-,Dd2,32.6 µM
CC(=O)N(O)CCCP(=O)(O)O,absorbance,RBC,EC50,-,K1,1.48 µM
C[C@@H]1CC[C@H]2[C@@H](C)C(=O)O[C@@H]3OC4(C)CC[C@@H]1[C@]32OO4,SYBR Green / fluorescence,-,EC50,GNF-Pf4492-resistant PfATP4 A211T,GNF-Pf4492R-1,0.0182 µM
Cc1cccc(OCCNC(=O)c2ccc(C)cc2Cl)c1,-,-,EC50,-,Dd2,>50 µM
CS[C@]12C[C@H]3C(=O)C=C[C@H](O)[C@H]3N1C(=O)[C@@]1(SC)C[C@H]3C(=O)C=C[C@H](O)[C@H]3N1C2=O,SYBR Green,-,EC50,-,3D7,4.4 µM
O=C(O)c1cccc(C=C2SC(=O)N(CC(=O)N3CCN(c4ccccc4)CC3)C2=O)c1,fluorescence,-,EC50,Chloroquine-resistant,W2,>10 µM
C=C1CN2CCC34c5ccccc5N5C=C([C@H]6CC7C8=C(CCC7C/C6=C/C)c6ccccc6C8)[C@@H](O)[C@@H]([C@H]53)[C@H]1C[C@H]24,-,-,EC90,-,W2,2.624 µg/mL
C[C@H]1[C@@H](OC(=O)CCC(=O)O)O[C@@H]2O[C@@]3(C)CC[C@H]4[C@H](C)CC[C@@H]1[C@@]24OO3,broth dilution / radiometric,human red blood cells,EC50,-,FCM29,0.0031 µM
O[C@H](c1cc(C(F)(F)F)nc2c(C(F)(F)F)cccc12)[C@@H]1CCCCN1,-,-,EC50,-,D10,0.038 µM
O=C(CC1CCC2(CC1)OOC1(OO2)C2CC3CC(C2)CC1C3)NCCN1CCCC1,-,-,EC50,-,3D7,0.0012 µM
Cc1cccc(OCCNC(=O)c2ccccc2)c1,-,-,EC50,-,Dd2,24.3 µM
O=C(CN1C(=O)SC(=Cc2cccc(OC(F)(F)F)c2)C1=O)N1CCN(c2ccccc2)CC1,fluorescence,-,EC50,Chloroquine-resistant,W2,>10 µM
Cc1cccc(NCC(=O)NNCc2ccccc2)c1,-,-,EC50,-,Dd2,>50 µM
O=C1C=C[C@H](O)[C@@H]2[C@H]1C[C@]13SS[C@@]4(C[C@H]5C(=O)C=C[C@H](O)[C@H]5N4C1=O)C(=O)N23,SYBR Green,-,EC50,-,3D7,4.5 µM
Cc1ccc2oc(-c3ccc(O)cc3O)nc2c1,-,-,EC50,-,Dd2,>50 µM
O=C(CN1C(=O)SC(=Cc2ccc(OC(F)(F)F)cc2)C1=O)N1CCN(c2ccccc2)CC1,fluorescence,-,EC50,Chloroquine-resistant,W2,>10 µM
O=C(CC1CCC2(CC1)OOC1(OO2)C2CC3CC(C2)CC1C3)N1CCC(N2CCCC2)CC1,-,-,EC50,-,K1,0.0009 µM
C/C=C(\C)C(=O)O[C@@H]1C/C(CO)=C/C[C@@H](O)/C=C(/C)[C@H]2OC(=O)[C@H](C)[C@@H]21,-,-,EC50,-,-,>5 µg/mL
O=CN(O)CCCP(=O)(O)O,absorbance,RBC,EC50,-,K1,3.71 µM

Repeating the final 6 entries:

O=C1C=C[C@H](O)[C@@H]2[C@H]1C[C@]13SS[C@@]4(C[C@H]5C(=O)C=C[C@H](O)[C@H]5N4C1=O)C(=O)N23 ; method: SYBR Green ; read-out: EC50 ; strain: 3D7 ; value: 4.5 µM
Cc1ccc2oc(-c3ccc(O)cc3O)nc2c1 ; read-out: EC50 ; strain: Dd2 ; value: >50 µM
O=C(CN1C(=O)SC(=Cc2ccc(OC(F)(F)F)cc2)C1=O)N1CCN(c2ccccc2)CC1 ; method: fluorescence ; read-out: EC50 ; changes: Chloroquine-resistant ; strain: W2 ; value: >10 µM
O=C(CC1CCC2(CC1)OOC1(OO2)C2CC3CC(C2)CC1C3)N1CCC(N2CCCC2)CC1 ; read-out: EC50 ; strain: K1 ; value: 0.0009 µM
C/C=C(\C)C(=O)O[C@@H]1C/C(CO)=C/C[C@@H](O)/C=C(/C)[C@H]2OC(=O)[C@H](C)[C@@H]21 ; read-out: EC50 ; value: >5 µg/mL
O=CN(O)CCCP(=O)(O)O ; method: absorbance ; cells: RBC ; read-out: EC50 ; strain: K1 ; value: 3.71 µM